We go through 1 sequence from PMC4466236, “A Novel AT-Rich DNA Recognition Mechanism for Bacterial Xenogeneic Silencer MvaT”.

This data set addresses T1, MvaT full-length (UniProt Q9HW86).
T1 sequence (looked up): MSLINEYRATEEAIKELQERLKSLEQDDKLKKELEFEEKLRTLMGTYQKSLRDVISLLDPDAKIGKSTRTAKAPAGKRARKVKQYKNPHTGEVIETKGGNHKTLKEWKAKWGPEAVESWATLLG
The experiment in a line: EMSA. As to conditions: apparent Kd; EMSA: 8 mM Tris pH 8.0, 15 mM HEPES pH 7.9, 40 mM NaCl, 40 mM KCl, 1.4 mM EDTA, 0.5 mM DTT, 9.95% glycerol, room temp; recombinant protein; residues 1-124; label: 5'-32P; probe letters rebuilt from the primers and the genome.

Tags and fusion partners may be left off the protein sequences shown.

As for “GCGAAGCCGTGGTTCGAGTTGTTGACTTGTCGCAAGACGGATTCTCCGAACAGCATCGGCGCAGCGCCCACTTGCAACGAGAGTGCGCACGCCGCCGTTGGCACTCGTCTGCGCACCGGACTTCTGAGCGGCGGCGGAAAAAGCTTGCTGCGCAAGGAGAAGCGCCTGCGGGTGAACATGGAAATTGCCCGGGAAAAGTCGACGGTAATTATTCGTTGAATAACAGGGAAGTGCATACTCCAACTTGGAAGTTAACTGCATGGCACCATCCATGCATTACACGGATGACGGTTTTTATTATAAGTCCAAACTGGCGAAGACAAGCAAGAGAGGCCGGGAT (double strand) [cupA1 promoter 340 bp]”, the Kd was determined as 57 nM.
